Source: PubChem BioAssay AID624099 (ICCB-Longwood, 2012)
Assay: 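Human genes that papillomavirus E2 requires to repress the HPV18 LCR promoter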 (primary screen). System: human C33A cervical carcinoma cells (HPV-negative) stably expressing BPV1 E2 and an HPV18 LCR luciferase reporter. Reagents: siRNA pool against human genes, 40 nM. Time to read-out: 72 h. Measurement: 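Per-well luciferase luminescence, z-scored on each plate against the plate mean and SD with control wells left out, then averaged across three replicate plates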. Scale: mean z-score and z-score: higher = stronger reporter signal, weaker E2 silencing. Call rule: 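Hit if mean z-score reaches 2 and two or more of three replicate z-scores also reach 2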.
Shown is an unselected part of about 21,000 reagents tested. Over the whole deposit, 497 (2.4%) were called active. 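Higher z means weaker E2 silencing; only reporter increases were scored, and knock-downs that hurt cell survival may mask genuine repressor factors.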 A number with no mark means an inactive call. Reagent sequences are not shown.

gene,mean z-score,"z-score, replicate A","z-score, replicate B","z-score, replicate C"
ADCY4 (adenylate cyclase 4),1.15,0.84,1.36,1.24
TIMM8A (translocase of inner mitochondrial membrane 8A),-0.02,-0.1,-0.23,0.28
CHLSN (cholesin),-0.73,-0.85,-0.75,-0.6
TPTE (transmembrane phosphatase with tensin homology),0.01,-0.01,0.17,-0.13
SLC4A5,-0.42,-0.13,-0.35,-0.77
LOC339539,-0.56,-0.35,-0.62,-0.71
LOC391298 (retired record),1.03,1.14,0.73,1.21
CTAGE6 (CTAGE family member 6),-0.75,-0.81,-0.66,-0.79
OR10H1 (olfactory receptor family 10 subfamily H member 1),-0.53,-0.41,-0.85,-0.34
FLJ35816 (retired record),-0.21,-0.26,-0.32,-0.04
FAM168A (family with sequence similarity 168 member A),0.39,0.32,0.69,0.17
BMP6 (bone morphogenetic protein 6),0.13,0.13,0.06,0.21
CFAP58 (cilia and flagella associated protein 58),0.76,0.89,0.6,0.8
PTENP1 (phosphatase and tensin homolog pseudogene 1),-0.62,-0.53,-0.7,-0.63
PRH1 (proline rich protein HaeIII subfamily 1),0.18,0.39,0.26,-0.12
LOC338750 (retired record),-0.28,0.1,-0.42,-0.52
AAR2 (AAR2 splicing factor),-0.03,-0.14,-0.04,0.08
FRY (FRY microtubule binding protein),-0.05,-0.35,0.17,0.04
RPL23P8 (ribosomal protein L23 pseudogene 8),0.24,0.44,0.36,-0.08
TMEM119 (transmembrane protein 119),1.85,1.93,1.82,1.79
OR14A16 (olfactory receptor family 14 subfamily A member 16),-0.09,-0.18,0.31,-0.41
COX7A2P2 (cytochrome c oxidase subunit 7A2 pseudogene 2),1.83,1.5,1.77,2.21
FOXD4L1 (forkhead box D4 like 1),0.31,0.34,0.22,0.37
CACNG8 (calcium voltage-gated channel auxiliary subunit gamma 8),0.1,0.36,0,-0.07
MAP4 (microtubule associated protein 4),-0.79,-0.84,-0.83,-0.7
TPD52L3 (TPD52 like 3),-0.04,-0.34,0.32,-0.11
"LOC100505502 (POM121 transmembrane nucleoporin like, pseudogene)",0.08,0.09,0.4,-0.26
ATP6V1G1 (ATPase H+ transporting V1 subunit G1),0.47,0.2,0.46,0.74
TMPRSS5 (transmembrane serine protease 5),0.87,1.29,0.68,0.65
MRPL45 (mitochondrial ribosomal protein L45),-0.75,-0.58,-0.82,-0.85
SNX5 (sorting nexin 5),-0.08,0,-0.19,-0.04
C8B (complement C8 beta chain),0.22,-0.09,0.44,0.32
NEFL (neurofilament light chain),0.06,0.02,0.1,0.07
PAQR3 (progestin and adipoQ receptor family member 3),-0.92,-0.69,-1.19,-0.89
CHN2 (chimerin 2),0.51,0.51,0.58,0.43
TAB2 (TGF-beta activated kinase 1 (MAP3K7) binding protein 2),-0.54,-0.84,-0.67,-0.11
RNF214 (ring finger protein 214),-0.1,-0.35,0.19,-0.13
TRIM68 (tripartite motif containing 68),2.69 (active),2.79,2.52,2.74
SLC25A6,-0.98,-1.04,-0.9,-1
SPCS1 (signal peptidase complex subunit 1),0.43,0.19,0.7,0.4
POLR2D (RNA polymerase II subunit D),-1.5,-1.26,-1.26,-1.98
"MT1DP (metallothionein 1D, pseudogene)",0.19,-0.08,0.42,0.23
SLC22A4,0.19,0.33,0.17,0.07
LCE2C (late cornified envelope 2C),1.8,1.37,1.93,2.08
POLR2M (RNA polymerase II subunit M),-0.06,-0.02,-0.1,-0.05
MTFMT (mitochondrial methionyl-tRNA formyltransferase),1.88,1.76,2.27,1.62
TM2D3 (TM2 domain containing 3),-0.99,-1.04,-1.57,-0.36
SIM2 (SIM bHLH transcription factor 2),1.66,1.71,1.73,1.53
XK,-0.07,0.16,0.03,-0.41
MRPS22 (mitochondrial ribosomal protein S22),0.13,-0.08,0.13,0.35
UBE3A (ubiquitin protein ligase E3A),-0.28,-0.06,-0.15,-0.64
APCDD1 (APC down-regulated 1),-0.71,-1.31,-0.55,-0.26
PCDHA3 (protocadherin alpha 3),-1.14,-0.98,-1.35,-1.1
TIMM10 (translocase of inner mitochondrial membrane 10),1.33,1.36,1.18,1.45
FAM133B (family with sequence similarity 133 member B),0.54,0.29,0.61,0.71
CSHL1 (chorionic somatomammotropin hormone like 1),1.04,0.83,1.1,1.2
DBNL (drebrin like),0.58,0.86,0.4,0.47

Part of the list above in another layout.
ATP6V1G1 (ATPase H+ transporting V1 subunit G1) → mean z-score: 0.47; z-score, replicate A: 0.2; z-score, replicate B: 0.46; z-score, replicate C: 0.74
TMPRSS5 (transmembrane serine protease 5) → mean z-score: 0.87; z-score, replicate A: 1.29; z-score, replicate B: 0.68; z-score, replicate C: 0.65
MRPL45 (mitochondrial ribosomal protein L45) → mean z-score: -0.75; z-score, replicate A: -0.58; z-score, replicate B: -0.82; z-score, replicate C: -0.85
SNX5 (sorting nexin 5) → mean z-score: -0.08; z-score, replicate A: 0; z-score, replicate B: -0.19; z-score, replicate C: -0.04
C8B (complement C8 beta chain) → mean z-score: 0.22; z-score, replicate A: -0.09; z-score, replicate B: 0.44; z-score, replicate C: 0.32
NEFL (neurofilament light chain) → mean z-score: 0.06; z-score, replicate A: 0.02; z-score, replicate B: 0.1; z-score, replicate C: 0.07
